Where two headings read alike, the source gives them in different places.
What was measured:
[1] = target: T1, 3a R155K; test: Luciferase assay of HCV replication in transient-transfection replicons with wild-type or substituted NS3 (at least 3 transfections).; assay type: cell-based, Huh-7; settings: SD, n = 3
T1 construct: in chimeric transient replicon

[2] = target: T2, 5a D168E (Hepatitis C virus SA13, UniProt O91936, D1195E); test: as above; assay type: cell-based, Huh-7; settings: SD, n = 3
T2 construct: in genotype 2a JFH-1 chimeric transient replicon

[3] = target: T3, 5a D168H (Hepatitis C virus SA13, UniProt O91936, D1195H); test: as above; assay type: cell-based, Huh-7; settings: SD, n = 3
T3 construct: in genotype 2a JFH-1 chimeric transient replicon

[4] = tested on: HCV genotype 1b replicon; test: Transient replicon assay with engineered substitutions; assay type: cell-based, Hepatitis C virus
[5] = tested on: HCV genotype 3a replicon; test: as above; assay type: cell-based, Hepatitis C virus
[6] = tested on: HCV genotype 1 to 6 replicons containing NS3 substitutions; test: Transient replicon assay with engineered substitutions, summary over genotypes; assay type: cell-based, Hepatitis C virus
[7] = tested on: HCV genotype 4a replicon; test: Transient replicon assay with engineered substitutions; assay type: cell-based, Hepatitis C virus
[8] = tested on: HCV genotype 4d replicon; test: as above; assay type: cell-based, Hepatitis C virus; settings: 4d NS3 D168V vs wild-type replicon
[9] = tested on: HCV genotype 2b replicon; test: as above; assay type: cell-based, Hepatitis C virus
[10] = tested on: HCV genotype 5a replicon; test: as above; assay type: cell-based, Hepatitis C virus; settings: for EC50: read-out: Mean EC50 ± SD
[11] = tested on: HCV genotype 6a replicon; test: as above; assay type: cell-based, Hepatitis C virus
[12] = tested on: HCV genotype 2a replicon; test: as above; assay type: cell-based, Hepatitis C virus
[13] = tested on: HCV genotype 1a replicon; test: as above; assay type: cell-based, Hepatitis C virus

Compound: C=C[C@@H]1C[C@]1(NC(=O)[C@@H]1C[C@@H]2CN1C(=O)[C@H](C(C)(C)C)NC(=O)O[C@@H]1C[C@H]1CCCCCc1nc3ccc(OC)cc3nc1O2)C(=O)NS(=O)(=O)C1CC1 [Grazoprevir, grazoprevir (MK-5172)]
- EC50 [1]: 5.8 ± 0.64 nM
- EC50 [2]: 0.58 ± 0.25 nM
- EC50 [3]: 15 ± 2 nM

Compound: C=C[C@@H]1C[C@]1(NC(=O)[C@@H]1C[C@@H]2CN1C(=O)[C@H](C(C)(C)C)NC(=O)O[C@@H]1C[C@H]1CCCCCc1nc3ccc(OC)cc3nc1O2)C(=O)NS(=O)(=O)C1CC1 [Grazoprevir]
- Fold change ([4]; 1b NS3 A156T vs wild-type replicon): 203 fold
- Fold change ([4]; 1b NS3 A156V vs wild-type replicon): 357 fold
- Fold change ([4]; 1b NS3 D168A vs wild-type replicon): 45 fold
- Fold change ([4]; 1b NS3 D168E vs wild-type replicon): 4.1 fold
- Fold change ([4]; 1b NS3 D168V vs wild-type replicon): 22 fold
- Fold change ([4]; 1b NS3 R155K vs wild-type replicon): 1.1 fold
- EC50 ([4]; 1b NS3 R155K, read-out: Mean EC50 ± SD): 0.21 ± 0.03 nM
- Fold change ([5]; 3a NS3 A156G vs wild-type replicon): 13 fold
- Fold change ([5]; 3a NS3 Q168R vs wild-type replicon): 3.5 fold
- Fold change ([5]; 3a NS3 R155K vs wild-type replicon): 0.1 fold
- EC50 ([5]; 3a NS3 R155K, read-out: Mean EC50 ± SD): 5.8 ± 0.64 nM
- Fold reduced activity, range ([6]; D168 substitutions in genotypes 1a, 1b, 2a, 2b, 4a, 4d, 5a and 6a): 2.3- to 1,048 fold
- Fold decrease in susceptibility ([6]; R155 substitutions in genotypes 1, 3 and 4): ≤ 7.1 fold
- Fold reduction in antiviral activity, range ([6]; replicons with A156 substitutions in genotypes 1 to 4): 13- to 1,057 fold
- Fold change ([7]; 4a NS3 A156T vs wild-type replicon): 1,057 fold
- Fold change ([7]; 4a NS3 A156V vs wild-type replicon): 602 fold
- Fold change ([7]; 4a NS3 D168H vs wild-type replicon): 90 fold
- Fold change ([7]; 4a NS3 D168V vs wild-type replicon): 46 fold
- Fold change ([7]; 4a NS3 R155C vs wild-type replicon): 7.1 fold
- Fold change [8]: 14 fold
- Fold change ([9]; 2b NS3 A156T vs wild-type replicon): 256 fold
- Fold change ([9]; 2b NS3 A156V vs wild-type replicon): 473 fold
- Fold change ([9]; 2b NS3 D168A vs wild-type replicon): 57 fold
- Fold change ([9]; 2b NS3 D168E vs wild-type replicon): 5.7 fold
- Fold change ([9]; 2b NS3 D168V vs wild-type replicon): 14 fold
- Fold change ([10]; 5a NS3 D168E vs wild-type replicon): 9.6 fold
- EC50 ([10]; 5a NS3 D168E): 0.58 ± 0.25 nM
- Fold change ([10]; 5a NS3 D168H vs wild-type replicon): 244 fold
- EC50 ([10]; 5a NS3 D168H): 15 ± 2 nM
- Fold change ([11]; 6a NS3 D168A vs wild-type replicon): 1,048 fold
- Fold change ([11]; 6a NS3 D168H vs wild-type replicon): 459 fold
- Fold change ([11]; 6a NS3 D168V vs wild-type replicon): 247 fold
- Fold change ([12]; 2a NS3 A156T vs wild-type replicon): 110 fold
- Fold change ([12]; 2a NS3 A156V vs wild-type replicon): 187 fold
- Fold change ([12]; 2a NS3 D168A vs wild-type replicon): 13 fold
- Fold change ([12]; 2a NS3 D168E vs wild-type replicon): 5.9 fold
- Fold change ([12]; 2a NS3 D168V vs wild-type replicon): 2.3 fold
- Fold change ([13]; 1a NS3 A156T vs wild-type replicon): 655 fold
- Fold change ([13]; 1a NS3 D168A vs wild-type replicon): 154 fold
- EC50 ([13]; 1a NS3 D168A, read-out: Mean EC50 ± SD): 21 ± 9.8 nM
- Fold change ([13]; 1a NS3 D168E vs wild-type replicon): 33 fold
- Fold change ([13]; 1a NS3 D168V vs wild-type replicon): 211 fold
- Fold change ([13]; 1a NS3 F43L vs wild-type replicon): 1.4 fold
- Fold change ([13]; 1a NS3 Q80K vs wild-type replicon): 1.8 fold
- Fold change ([13]; 1a NS3 R155K vs wild-type replicon): 4.2 fold
- Fold change ([13]; 1a NS3 V36M vs wild-type replicon): 1.9 fold
- Fold change ([13]; 1a NS3 V55I vs wild-type replicon): 0.7 fold
- Fold change ([13]; 1a NS3 Y56H vs wild-type replicon): 16 fold
